Assay: general procedure: Fmoc solid-phase peptide synthesis; Rink Amide MBHA LL resin (100–200 mesh, 0.33 mmol/g, NovaBiochem); HCTU/NMM
Conditions: whole synthesis, 220 nm

FKLRAKIKVRLRAKIKL-NH2 and KKLFKKILKYL-NH2 are the same in “final HPLC purity” value: 100% for the first, 100% for the second.

Compared with KKLLKWLLKLL-NH2, KWKLFKKIGAVLKVL-NH2 is higher in “final HPLC purity” value: 98.6% for the first, 99.0% for the second.

LLLFLLKKRKKRKY-NH2 and RRLFRRILRWL-NH2 are the same in “final HPLC purity” value: 100% for the first, 100% for the second.

Reference: publication PMC7962642 (Molecules, 2021)
